# Laboratory results published in PMC5603512, “Discovery, Semisynthesis, Antiparasitic and Cytotoxic Evaluation of 14-Membered Resorcylic Acid Lactones and Their Derivatives” (Scientific Reports, 2017).
# Experiments:
# Plasmodium falciparum = experiment: Antiplasmodial assay (PicoGreen growth inhibition in infected human erythrocytes); assay type: cell-based; details: for Plasmodium falciparum SI: Selectivity Index (CC50/IC50), CC50 on Vero cells
# Protocol: Activity against the causative agent of malaria was performed by culturing human erythrocytes and infecting them with P. falciparum, as described by Trager and Jensen[36]. Briefly, the W2 (Chloroquine resistant) and 3D7 (Chloroquine sensitive) strains of P. falciparum were cultured in RPMI 1640 medium (Sigma-Aldrich, USA) supplemented with 10% human serum (from O+ blood) at a hematocrit of 2% erythrocytes (O+) at 37 °C in a gas mixture of 5% CO2, 5% O2, and 90% N2. Parasites were synchronized by a temperature cycling technique as described by Almanza et al.[37]
# Leishmania donovani = experiment: Antileishmanial assay (PicoGreen); assay type: cell-based; details: Selectivity Index (CC50/IC50), CC50 on Vero cells
# Protocol: The anti-leishmania activity was evaluated following the protocol described by Calderon et al.[39], using the fluorescent DNA intercalator PicoGreen (Invitrogen, USA). The species responsible for visceral leishmaniasis, L. donovani, was used for the assays.
Compound,Plasmodium falciparum SI (Plasmodium falciparum),Leishmania donovani SI (Leishmania donovani),Improvement of antiplasmodial IC50 over compound 13 (Plasmodium falciparum; 11 versus 13),"Higher therapeutic ratio than compound 13 (Plasmodium falciparum; 12 versus 13, CC50/IC50) [fold]"
"COc1cc(O)c2c(c1)/C=C/C[C@H](O)[C@@H]1OC(C)(C)O[C@H]1/C=C/C[C@H](C)OC2=O [Compound 1, cochliomycin A]",3,–,–,–
COc1cc(O)c2c(c1)/C=C/C[C@H](O)[C@H](O)C(=O)/C=C/C[C@H](C)OC2=O [Compound 6],<1,2,–,–
COc1cc(O)c2c(c1)/C=C/C[C@H](O)[C@H](O)C(=O)/C=C\C[C@H](C)OC2=O [Compound 7],<1,<1,–,–
COc1cc2c(c(OC(C)=O)c1)C(=O)O[C@@H](C)C/C=C/[C@@H]1OC(C)(C)O[C@H]1[C@@H](OC(C)=O)C/C=C/2 [Compound 11],> 180 and 184,37,approximately 4 fold,–
COc1cc(O)c2c(c1)/C=C/C[C@H](OC(C)=O)[C@H](OC(C)=O)[C@@H](OC(C)=O)/C=C/C[C@H](C)OC2=O [Compound 12],> 180 and 182,97,–,3
COc1cc2c(c(OC(C)=O)c1)C(=O)O[C@@H](C)C/C=C/[C@H](OC(C)=O)[C@@H](OC(C)=O)[C@@H](OC(C)=O)C/C=C/2 [Compound 13],61,–,–,–
COc1cc2c(c(OC(=O)c3ccco3)c1)C(=O)O[C@@H](C)C/C=C/[C@H](OC(=O)c1ccco1)[C@@H](OC(=O)c1ccco1)[C@@H](OC(=O)c1ccco1)C/C=C/2 [Compound 15],71,–,–,–
COc1cc(O)c2c(c1)/C=C/C[C@@H]1OC(C)(C)O[C@@H]1C(=O)/C=C/C[C@H](C)OC2=O [Compound 20],–,<1,–,–
COc1cc2c(c(OC(C)=O)c1)C(=O)O[C@@H](C)C/C=C/C(=O)[C@@H](OC(C)=O)[C@@H](OC(C)=O)C/C=C/2 [Compound 21],–,2,–,–
COc1cc2c(c(OC(=O)c3cccs3)c1)C(=O)O[C@@H](C)C/C=C/C(=O)[C@@H](OC(=O)c1cccs1)[C@@H](OC(=O)c1cccs1)C/C=C/2 [Compound 22],<1,4,–,–
COc1cc2c(c(OC(C)=O)c1)C(=O)O[C@@H](C)C/C=C/C(=O)[C@@H](OC(C)=O)[C@H](OC(C)=O)C/C=C/2 [Compound 24],–,<1,–,–
COc1cc(O)c2c(c1)C=CCC1OC(C)(C)OC1C(=O)C=CCC(C)OC2=O (stereo not drawn) [Compound 26],<1,<1,–,–
COc1cc(O)c2c(c1)/C=C/C[C@H](OC(C)=O)[C@H](OC(C)=O)C(=O)/C=C\C[C@H](C)OC2=O [Compound 27],–,<1,–,–

# Values joined by “and” are separate entries in the source; they are usually repeats but may differ in a detail not shown here. Identical values can stand only once.
